Experiments:
[1] = system: influenza A/Kawasaki/86; assay: Susceptibility of influenza A/Kawasaki/86
[2] = system: influenza virus strain A/Kawasaki/86; assay: Resistance selection by passage in stepwise increases of compound, HA sequencing; settings: virus JT.A (selected with COMPOUND C)

SMILES	susceptibility of A/Kawasaki/86 [1]	resistance of virus JT.A [2]
COC(=O)[C@@]1(C)CCC[C@]2(C)c3cc(OC)ccc3C(=O)C[C@@H]12 [COMPOUND A]	sensitive	
COC(=O)[C@@]1(C)CCC[C@]2(C)c3cc(OC)ccc3C(=NO)C[C@@H]12		crossresistant
O=C(O)CCC1(c2ccccc2)CCCCC1 [COMPOUND C]		resistant

Source: US6037348A (priority 1997, dated 2000)
